# Percent effect of library compounds

Mtb glucose medium: 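Whole-cell growth test on Mycobacterium tuberculosis, read after 3 days in glucose-containing 7H9 medium; the read-out is not stated. Compounds at 500 µM. Direction is inferred from retests: higher values go with more growth inhibition. About 18,000 compounds were tested under these conditions; 7.9% (about 1,400) showed 50% or more at least once.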
Mtb cholesterol medium: 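Whole-cell growth test on Mycobacterium tuberculosis, read after 4 days in a medium based on cholesterol and the lipid DPPC; the read-out is not stated. Compounds at 500 µM. Higher reads as more growth inhibition (inferred: compounds with an IC50 in retests scored well above the rest). Of about 18,000 compounds tested this way, about 900 (5%) reached 50% or more in at least one test.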

Results are given as percent effect.
The controls that fix the scale are not given in the record; negative values are as filed.
Many other results are left out here, so strong results are more common than in the screen.
A dash means the value is not listed here; it may have been measured.

SMILES | Mtb glucose medium | Mtb cholesterol medium
CCN(CC)CCOC1CCNC1 (stereo not given) | -11.82% | -
CNCCN(C)C(=O)c1cc(F)ccc1C | -5.903% | -
Cc1ccc(C(=O)NCCc2cncn2C)n1C | - | -7.228%
Cc1ccc(C(C)NC(=O)CNC(=O)C2CCCC2)o1 (stereo not given) | -0.02434% | -
CNC(=O)CCCNCc1c(C(C)C)nn(C)c1OC | - | 6.053%
CC(C)c1cccc(NC(=O)CN)c1 | 35.43% | 22.67%
Cc1noc(C)c1CN1CCn2ccnc2C1 | 4.477% | -
CC(=O)Nc1cccc(-n2nnnc2SCC#N)c1 | 4.076% | -
CC(O)c1cc2n(n1)CCN(Cc1cccnc1)C2 (stereo not given) | - | 7.399%
CCCc1cc(-c2nc3c([nH]2)CCCNC3=O)on1 | 8.368% | -
CC(C)N(C)C(=O)C(N)c1ccccc1 (stereo not given) | 7.1% | -
Cc1cc(CNC(=O)CSc2ccncc2)on1 | 8.87% | -
COCCC(=O)NCc1ccccc1CN(C)C | 2.277% | -
Cc1ccc(CCN)cc1 | - | 10.49%
CCC1C(=O)NCCN1C(=O)Nc1cccc(C)n1 (stereo not given) | - | 4.032%
CNCC(=O)Nc1cc(F)cc(F)c1 | 20.29% | 3.054%
COC(=O)C(C)NC(=O)C1CCCCC1 (stereo not given) | 49.76% | -
CC1(CNC(=O)CCOc2ccccc2)COC1 | 16.29% | -
O=S(=O)(NCCN1CCCC1)c1c(F)cccc1F | 14.83% | -
CN(Cc1ccccc1O)C(=O)C1CCOCC1 | 17.17% | -
O=C([C@@H]1C[C@H](F)CN1)N1CCc2ccccc21 | - | 28.23%
COC(=O)CCCC(=O)N1CCCc2ccccc2C1 | 54.97% | -
O=C(NC1CCS(=O)(=O)C1)c1cc2cccc(Cl)c2s1 (stereo not given) | 0.5649% | -
NCCC1CSc2ccccc2O1 (stereo not given) | 61.26% | -
Cn1cc(C(=O)NCCNS(C)(=O)=O)c2ccccc21 | 17.3% | -
O=C(Cc1cccc(O)c1)NCCCn1cncn1 | 3.247% | -
NCCNS(=O)(=O)c1cccc(OC(F)(F)F)c1 | 41.83% | 14.65%
CC(C)(C)C(=O)N1CCc2cnccc21 | 4.482% | -
NCC(CO)Cc1ccc(Cl)cc1 (stereo not given) | 48.45% | -
NC(=O)NCC1CCCN(C(=O)NC2CCCCC2)C1 (stereo not given) | 4.771% | -
CC1CN(C)CCN1CC(=O)NCc1cccs1 (stereo not given) | - | 8.815%
CN1CCCN(c2nc3ccccc3cc2CO)CC1 | 39.32% | -
CCN(CC)CC(=O)N(C)Cc1ccncc1 | 1.507% | -
O=S(=O)(CCNc1cncc(Cl)n1)N1CCSCC1 | 78.52% | 74.08%
Cc1cc(C(=O)NCc2cccc(F)c2)no1 | 74.14% | 53.84%
CC(=O)NCCC(=O)N(C)Cc1noc(C(C)C)n1 | 10.64% | -
O=C(COc1ccccc1Cl)NCC(=O)c1ccco1 | 52.2% | -
OC(Cn1nnnc1-c1ccccn1)CC(F)(F)F (stereo not given) | 10.93% | -4.149%
CCS(=O)(=O)c1ccc(C(C)N)cc1 (stereo not given) | 9.874% | -
NCC1CCN(C2CCCC2)C1 (stereo not given) | -4.579% | 2.928%
Cn1cc(Br)cc1C(=O)NCC1CC(=O)N(C2CC2)C1 (stereo not given) | 31.37% | -
O=C(CCOCC(F)(F)F)NCCNc1ccccc1 | 41.03% | -

3 of the entries, repeated:

SMILES,Mtb glucose medium,Mtb cholesterol medium
Cc1cc(C(=O)NCc2cccc(F)c2)no1,74.14%,53.84%
CNCCN(C)C(=O)c1cc(F)ccc1C,-5.903%,-
CC(=O)NCCC(=O)N(C)Cc1noc(C(C)C)n1,10.64%,-

From ChEMBL document CHEMBL3988442, “University of Dundee, Small-Polar-MMV Screening Library” (2021).